From patent US20040157314

Sequences of proteins named here, by UniProt entry; tags and fusion partners are left off. A change or cut given only in a name is not applied to a line headed by its entry.
UniProt P0A0I8: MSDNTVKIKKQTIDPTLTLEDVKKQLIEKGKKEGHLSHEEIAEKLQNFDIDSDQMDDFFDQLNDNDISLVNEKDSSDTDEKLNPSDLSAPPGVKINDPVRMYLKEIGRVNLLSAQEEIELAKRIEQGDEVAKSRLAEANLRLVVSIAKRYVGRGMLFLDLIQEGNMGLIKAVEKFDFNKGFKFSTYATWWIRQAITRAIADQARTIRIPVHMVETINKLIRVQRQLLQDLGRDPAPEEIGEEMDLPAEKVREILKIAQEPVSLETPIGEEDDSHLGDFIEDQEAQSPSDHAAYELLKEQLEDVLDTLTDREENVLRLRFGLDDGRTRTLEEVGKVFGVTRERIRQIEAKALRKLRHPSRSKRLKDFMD

Target: STAAU_R12 (primary sigma factor SigA) + E. coli core RNA polymerase (Staphylococcus aureus) (UniProt P0A0I8)
Experiment: competition with a labelled probe
Settings: TR-FRET competition, unlabeled, 0-5 fold molar excess reduced complex; purified recombinant protein

Sequence: GATAGAGTTGACATCCCTATCAGTGATAGAGATACTGAGAACATCAGC / GCTGATGTGCTCAGTATCTCTATCACTGATAGGGATGTCAATCTCTATC [lambda PL oligonucleotide]
- binding result: binds

The exact form of at least one protein or probe is not confirmed.
